# System: Nc1ccccc1N
# Experiment: purified protein
# Conditions: 100 mM citrate-phosphate pH 4, air O2
substance,measurement,value
HaLF (Heterobasidion irregulare TC 32-1; A247E/F364D),Km,910 ± 200 µM
same,kcat,6.6 ± 0.5 s⁻¹

# From PMC9880977 (Computational and Structural Biotechnology Journal, 2023)
